Test results taken from publication PMC4132742, “Inhibition of RNA binding to hepatitis C virus RNA-dependent RNA polymerase: a new mechanism for antiviral intervention” (Nucleic Acids Research, 2014).

How the values were obtained:
HCV-NS5BΔ21 RdRp mutants [1] = molecular target: HCV-NS5BΔ21 RdRp mutants (Hepatitis C virus genotype 1b, UniProt O92972, D2978A); conditions: D559 variant
HCV-NS5BΔ21 RdRp mutants [2] = conditions: P495L, M423T, H95Q, M414T, S556A, C316Y, S96A, S282T

With O=c1c(O)c(-c2ccc(O)c(O)c2)oc2cc(O)c(O)c(O)c12 [Quercetagetin] the “reduction of susceptibility relative to wild type” value (HCV-NS5BΔ21 RdRp mutants [1]) was 7 fold and the “susceptibility of mutants resistant to other NI and NNI classes” value (HCV-NS5BΔ21 RdRp mutants [2]) was “None of these substitutions altered”.
